Results of unrelated studies side by side (data: NIAID ChemDB).

All rows: whole-cell or culture tests; agent: HIV-1

Blank or dashed fields: not listed here. ECn: concentration that inhibits the pathogen or its effect by n%. Lines come from different laboratories, so protocols vary.

Cc1cc(C#N)cc(C)c1Oc1nc(NC2CCC(NCc3ccc(S(C)(=O)=O)cc3)CC2)nc2ccsc12 ; changes: NNRTI-resistant (RT E138K) ; read by: MTT ; cells: MT-4 ; endpoint: EC50 ; strain or isolate: IIIB ; value: 0.135 µM
CN1CCn2c(nc(C(=O)NCc3ccc(F)c(Br)c3)c(O)c2=O)C1(C)C ; read by: p24 ; cells: MT-4 ; endpoint: EC95 ; value: <1 µM
Cc1c(C(C)(O)c2cccc(C(F)(F)F)c2)n(COCc2ccccc2)c(=O)[nH]c1=O ; read by: MTT ; cells: MT-4 ; endpoint: EC50 ; strain or isolate: IIIB ; value: >38.4 µM
Cc1cc(C#N)cc(C)c1Oc1nc(NC2CCC(NCc3ccc(O)cc3)CC2)nc2ccsc12 ; changes: NNRTI-resistant (RT E138K) ; read by: MTT ; cells: MT-4 ; endpoint: EC50 ; strain or isolate: IIIB ; value: 4.02 µM
CC(=O)N1Cn2c(nc(C(=O)NCc3ccc(F)cc3)c(O)c2=O)C1(C)C ; read by: p24 ; cells: MT-4 ; endpoint: EC50 ; value: <50 µM
COc1ccc2sc3c(c2c1)N(Cc1cccc(C)c1)CCNC3=O ; read by: p24 ; cells: OM-10.1 ; endpoint: EC50 ; value: <0.04 µM
C=C(Cl)COc1cc(NC(=S)c2ccsc2C)ccc1C#N ; changes: RT-Y188H ; read by: syncytia ; cells: CEM ; endpoint: EC50 ; strain or isolate: HEPT-resistant (RT Y188H) ; value: 2 µg/mL
Cc1ccccc1C(C)c1c(C)c(=O)[nH]c(=O)n1COCc1ccccc1 ; changes: K103N ; read by: MTT ; cells: MT-4 ; endpoint: EC50 ; strain or isolate: IIIB ; value: 84.13 µM
CC(C)CN(C[C@@H](O)[C@H](Cc1ccccc1)NC(=O)[C@H](C(C)C)N1CC(=O)N(Cc2ccccn2)C1=O)S(=O)(=O)c1ccc(/C=N/O)cc1 ; read by: cytopathic effect / MTT ; setting: 50% human serum ; cells: MT-4 ; endpoint: EC50 ; value: 0.059 µM
CSc1ccc2sc3c(c2c1)N(Cc1cccc([N+](=O)[O-])c1)CCNC3=O ; read by: p24 ; cells: OM-10.1 ; endpoint: EC50 ; value: <0.08 µM
COc1ccc(NC(=S)C2=C(C)OCCS2)cc1OCC=C(Cl)Cl ; changes: RT-Y188H ; read by: syncytia ; cells: CEM ; endpoint: EC50 ; strain or isolate: HEPT-resistant (RT Y188H) ; value: 2 µg/mL
COc1ccc2sc3c(c2c1)SCC(C)/C3=N\O ; read by: p24 ; cells: OM-10.1 ; endpoint: EC50 ; value: 0.1 µM
Cc1sccc1C(=O)Nc1ccc(Cl)c(OCC=C(Cl)Cl)c1 ; changes: RT-Y181C ; read by: syncytia ; cells: CEM ; endpoint: EC50 ; strain or isolate: Pyridone-resistant (RT Y181C) ; value: 2.5 µg/mL
Cc1cc(/C=C/C#N)cc(C)c1Oc1nc(NC2CCN(Cc3ccc([N+](=O)[O-])cc3)CC2)nc2ccsc12 ; changes: NNRTI-resistant (RT L100I) ; read by: MTT ; cells: MT-4 ; endpoint: EC50 ; strain or isolate: IIIB ; value: 0.0263 µM
CSc1ccc2oc3c(c2c1)N(Cc1ccccc1)CCNC3=O ; read by: p24 ; cells: OM-10.1 ; endpoint: EC50 ; value: <0.08 µM
Cc1cc(C)cc(S(=O)(=O)c2c(C(=O)NCCO)[nH]c3ccc(Cl)cc23)c1 ; changes: RT-K103N Y181C ; read by: cytopathic effect / MTT ; cells: MT-4 ; endpoint: EC50 ; value: 0.5 µM
Cc1coc(CN2CCn3c(nc(C(=O)NCc4ccc(F)cc4)c(O)c3=O)C2(C)C)n1 ; read by: p24 ; cells: MT-4 ; endpoint: EC95 ; value: <1 µM
Cc1occc1C(=O)Nc1ccc(Cl)c(SCC=C(Cl)Cl)c1 ; changes: RT-V106A ; read by: syncytia ; cells: CEM ; endpoint: EC50 ; strain or isolate: Nevirapine-resistant isolate (RT V106A) ; value: 0.8 µg/mL
CC(C)CN(C[C@@H](O)[C@H](Cc1ccccc1)NC(=O)[C@@H](N1CCN(Cc2cccnc2)C1=O)C(C)(C)C)S(=O)(=O)c1ccc(/C=N/O)cc1 ; changes: PR-L10F V32I M46I I47V Q68E I84V ; read by: cytopathic effect / MTT ; cells: MT-4 ; endpoint: EC50 ; strain or isolate: A17 (LPV-resistant) ; value: 0.001 µM
Cc1nnc(-c2cccc(-c3cccc(C(=O)N4CCCCC4)c3)c2)o1 ; read by: luminescence ; setting: pseudotyped ; cells: TZM-bl ; endpoint: EC50 ; strain or isolate: 25710 ; value: >30 µM
CC(=O)N1CCn2c(nc(C(=O)NCc3ccc(F)cc3)c(O)c2=O)C(N(C)Cc2ccccc2)C1 ; read by: p24 ; cells: MT-4 ; endpoint: EC50 ; value: <1 µM
Cc1cc(C#N)cc(C)c1Oc1nc(NC2CCC(NCc3cccc(C(F)(F)F)c3)CC2)nc2ccsc12 ; changes: NNRTI-resistant (RT L100I) ; read by: MTT ; cells: MT-4 ; endpoint: EC50 ; strain or isolate: IIIB ; value: >707 µM
Cn1ccc(CN2CCn3c(nc(C(=O)NCc4ccc(F)cc4)c(O)c3=O)C23CCOCC3)n1 ; read by: p24 ; cells: MT-4 ; endpoint: EC50 ; value: <1 µM
Cc1cc(/C=C/C#N)cc(C)c1Oc1nc(NC2CCN(Cc3ccc(Cl)cc3)CC2)nc2ccsc12 ; changes: NNRTI-resistant (RT F227L V106A) ; read by: MTT ; cells: MT-4 ; endpoint: EC50 ; strain or isolate: IIIB ; value: 0.108 µM
Cc1ccc(CNC(=O)c2nc3n(c(=O)c2O)CCN(C2CC2)CC3N(C)C(=O)C(=O)N(C)C)cc1Cl ; read by: p24 ; cells: MT-4 ; endpoint: EC50 ; value: <1 µM
Cc1cc(/C=C/C#N)cc(C)c1Oc1nc(NC2CCN(Cc3ccncc3)CC2)nc2ccsc12 ; changes: NNRTI-resistant (RT L100I) ; read by: MTT ; cells: MT-4 ; endpoint: EC50 ; strain or isolate: IIIB ; value: 0.00635 µM
COc1ccc2c(c1)C1=C(CC2)C(=O)NCCN1Cc1ccccc1C ; read by: p24 ; cells: OM-10.1 ; endpoint: EC50 ; value: 0.4 µM
CCC(C)[C@@H](C(=O)N[C@@H](Cc1ccccc1)[C@H](O)CN(CC(C)C)S(=O)(=O)c1ccc(/C=N/O)cc1)N1CC(=O)N(Cc2cccnc2)C1=O ; changes: PR-L10F V32I M46I I47V Q68E I84V ; read by: cytopathic effect / MTT ; cells: MT-4 ; endpoint: EC50 ; strain or isolate: A17 (LPV-resistant) ; value: 0.001 µM
C=C(c1ccc(F)cc1)c1c(C)c(=O)[nH]c(=O)n1COCc1ccccc1 ; read by: MTT ; cells: MT-4 ; endpoint: EC50 ; strain or isolate: IIIB ; value: 44.15 µM
CCC[C@@]1(CCc2ccccc2)CC(O)=C([C@H](CC)c2cccc(NS(=O)(=O)c3ccc(C(F)(F)F)cn3)c2)C(=O)O1 ; changes: V32I L76V V82I ; read by: reporter gene ; cells: MT-4 ; endpoint: EC50 ; strain or isolate: T13572 ; value: 240 nM
Cc1c(C(C)c2ccc(F)cc2)n(COCc2ccccc2)c(=O)[nH]c1=O ; read by: MTT ; cells: MT-4 ; endpoint: EC50 ; strain or isolate: IIIB ; value: >339.3 µM
CCC(C)[C@@H](C(=O)N[C@@H](Cc1ccccc1)[C@H](O)CN(CC1CCCC1)S(=O)(=O)c1ccc(/C=N/O)cc1)N1CCN(Cc2cccnc2C)C1=O ; read by: cytopathic effect / MTT ; cells: MT-4 ; endpoint: EC50 ; value: 0.002 µM
COc1ccc2sc3c(c2c1)N(Cc1ccccc1Cl)CCNC3=O ; read by: p24 ; cells: OM-10.1 ; endpoint: EC50 ; value: <0.04 µM
CCC(C)[C@@H](C(=O)N[C@@H](Cc1ccccc1)[C@H](O)CN(CC1CCCC1)S(=O)(=O)c1ccc(/C=N/O)cc1)N1CCN(Cc2cccnc2)C1=O ; read by: cytopathic effect / MTT ; cells: MT-4 ; endpoint: EC50 ; value: 0.002 µM
C/C(Cl)=C/COc1cc(NC(=S)c2ccoc2C)ccc1Cl ; changes: RT-K103N ; read by: syncytia ; cells: CEM ; endpoint: EC50 ; strain or isolate: TIBO R82913-resistant (RT K103N) ; value: 0.09 µg/mL

For reference, 3 entries again:

structure | changes | read by | setting | cells | endpoint | strain or isolate | value
Cc1cc(C)cc(S(=O)(=O)c2c(C(=O)NCCO)[nH]c3ccc(Cl)cc23)c1 | RT-K103N Y181C | cytopathic effect / MTT |  | MT-4 | EC50 |  | 0.5 µM
COc1ccc2sc3c(c2c1)SCC(C)/C3=N\O |  | p24 |  | OM-10.1 | EC50 |  | 0.1 µM
CCC(C)[C@@H](C(=O)N[C@@H](Cc1ccccc1)[C@H](O)CN(CC1CCCC1)S(=O)(=O)c1ccc(/C=N/O)cc1)N1CCN(Cc2cccnc2)C1=O |  | cytopathic effect / MTT |  | MT-4 | EC50 |  | 0.002 µM